1 substance from paper PMC6423129, “Activity and structural analysis of GRL-117C: a novel small molecule CCR5 inhibitor active against R5-tropic HIV-1s” (Scientific Reports, 2019) can be followed below.

Sequences of proteins named here, by UniProt entry; tags and fusion partners are left off.
UniProt P51681, whole entry: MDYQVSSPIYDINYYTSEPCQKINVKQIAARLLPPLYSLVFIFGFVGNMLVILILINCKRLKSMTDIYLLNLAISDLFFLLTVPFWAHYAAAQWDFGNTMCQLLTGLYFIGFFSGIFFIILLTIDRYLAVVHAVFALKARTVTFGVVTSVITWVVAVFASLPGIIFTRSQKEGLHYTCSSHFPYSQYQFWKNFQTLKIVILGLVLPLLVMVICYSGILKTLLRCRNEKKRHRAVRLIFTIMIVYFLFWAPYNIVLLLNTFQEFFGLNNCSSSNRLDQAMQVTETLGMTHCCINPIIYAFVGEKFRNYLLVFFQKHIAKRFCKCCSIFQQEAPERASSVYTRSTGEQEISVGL

In test [1] the target is T1, CCR5 (Homo sapiens, UniProt P51681).
T1 construct: expressed in transfected cells; host or cells: Chinese hamster ovary (CHO) cells expressing CCR5
Nature of the test: Inhibition of 125I-MIP-1α binding to CCR5 (CCR5+ CHO cells). The settings on record: 125I-MIP-1α 200 ng/ml. The method, then: (§1) In order to determine whether GRL derivatives block the binding of CC-chemokines to CCR5, we conducted a CC-chemokine binding inhibition assay using ^125I-labeled CC-chemokines (^125I-RANTES, ^125I-MIP-1α, and ^125I-MIP-1β) and CCR5 expressing cells.
(§2) CCR5^+ CHO cells were incubated with (A) ^125I-MIP-1α, (B) ^125I-MIP-1β, and (C) ^125I-RANTES (200 ng/ml) in the presence or absence of varying concentrations of CCR5 inhibitors. Data are shown as means ± s.d. of three independent experiments.
(§3) The inhibition of the binding of ^125I-labeled CC-chemokines ([^125I] RANTES, [^125I] MIP-1α, or [^125I] MIP-1β) to CCR5 by various CCR5 inhibitors was measured as previously described. Calcium flux inhibition assays were also performed with CCR5 inhibitors, and were carried out with the Fluo-4 Direct^TM calcium reagent (Invitrogen); assays were conducted as previously described with minor modifications. In brief, CHO-CCR5 cells (5 × 10^5 cells) were exposed to Fluo-4 Direct^TM calcium reagent for 60 min at 37 °C in RPMI containing 5% FCS. Cells were then incubated with the test compound for 30 min at varying concentrations. […] Relative increases in cytosolic Ca^2+ levels after chemokine exposure were determined with flow cytometry (FACSCalibur, BD Biosciences), and IC50 values of cytosolic Ca^2+ mobilization (Ca^2+ flux) were compared with the Ca^2+ flux level in drug-free control samples.

The target of test [2] is T1, CCR5. Nature of the test: Inhibition of 125I-RANTES binding to CCR5 (CCR5+ CHO cells). The conditions noted are these: 125I-RANTES 200 ng/ml. The protocol:
as §1, §2, §3

Test [3] addresses T1, CCR5. Nature of the test: Inhibition of 125I-MIP-1β binding to CCR5 (CCR5+ CHO cells). The conditions noted are these: 125I-MIP-1β 200 ng/ml. The method, then:
as §1, §2, §3

With Maraviroc [MVC], the EC50 was 0.1 nM on CCR5 [1], 8.4 nM at CCR5 [2] and 0.5 nM on CCR5 [3].
